Assays:
[1] = system: cucumber gray mold fungus (Botrytis cinerea); assay: Control test of cucumber gray mold (sprayed seedlings); details: 125 ppm by mass sprayed on cucumber seedlings (cultivar "Jibai" line, cotyledon stage); lesion area rate four days after inoculation, 20°C
Description: 5 parts by mass of the 5-membered heteroaryl compound according to the embodiment of the present invention, 93.5 parts by mass of N,N-dimethylformamide, and 1.5 parts by mass of polyoxyethylene sorbitan monolaurate were mixed to obtain an emulsifiable concentrate (1) containing 5% by mass of the active ingredient.
Water was added to the above-described emulsifiable concentrate (1) to obtain a chemical solution having a concentration of the 5-membered heteroaryl compound according to the embodiment of the present invention of 125 ppm by mass or 25 ppm by mass. Subsequently, the chemical solution was sprayed onto cucumber seedlings (cultivar "Jibai" line, cotyledon stage) grown in seedling pots, and then air-dried. Thereafter, a conidial suspension of cucumber gray mold fungus (Botrytis cinerea) was drop-inoculated onto the cucumber seedlings (treated plot). As a control, the conidial suspension of cucumber gray mold fungus (Botrytis cinerea) was drop-inoculated onto cucumber seedlings onto which the chemical solution had not been sprayed (untreated control). The seedlings were allowed to stand in a humid chamber at 20°C. Four days after inoculation, the leaves of the cucumber seedlings were visually observed, and a control value was calculated from the lesion area rate by the following formula. Control value(%) =; 100−{Lesionarearateintreatedplot/Lesionarearateinuntreatedcontrol} x; 100 [formula]

[2] = system: wheat powdery mildew fungus (Erysiphe graminis f. sp. tritici); assay: Control test of wheat powdery mildew (sprayed seedlings); details: 125 ppm by mass sprayed on wheat seedlings (cultivar "Chihoku", 1 or 2 leaf stage); lesion area rate six days after inoculation, 20°C
Description: Water was added to the emulsifiable concentrate (1) so that the concentration of the 5-membered heteroaryl compound according to the embodiment of the present invention was 125 ppm by mass, thereby obtaining a chemical solution. Subsequently, the chemical solution was sprayed onto wheat seedlings (cultivar "Chihoku", 1 or 2 leaf stage) grown in seedling pots, and air-dried. Thereafter, conidia of wheat powdery mildew fungus (Erysiphe graminis f. sp. tritici) were sprinkled and inoculated (treated plot). As a control, the conidia of wheat powdery mildew fungus (Erysiphe graminis f. sp. tritici) were sprinkled and inoculated onto wheat seedlings onto which the chemical solution had not been sprayed (untreated control). The seedlings were allowed to stand in a greenhouse at 20°C. Six days after inoculation, the leaves of the wheat seedlings were visually observed to determine the lesion area rate, and a control value was calculated in the same manner as in the previous test.

[3] = system: gray mold fungus (Botrytis cinerea); assay: Fungicidal effect test against gray mold fungus (96-well microplate, turbidity); details: 25 ppm by volume; Vogel's medium; dark, 20°C, 5 days; turbidity OD at 405 nm
Description: (§1) A spore suspension of gray mold fungus (Botrytis cinerea, Vogel's medium) was prepared. The 5-membered heteroaryl compound according to the embodiment of the present invention was added to dimethyl sulfoxide to obtain a chemical solution. The chemical solution and the above-described spore suspension were mixed in equal amounts (based on volume) to obtain a test solution having a concentration of the 5-membered heteroaryl compound according to the embodiment of the present invention of 25 ppm by volume. The test solution was added dropwise to a 96-well microplate (treated plot).
(§2) Dimethyl sulfoxide and the above-described spore suspension were mixed in equal amounts (based on volume) to obtain a control solution. The control solution was added dropwise to a 96-well microplate (untreated control).
(§3) These were cultured by allowing them to stand in the dark at 20°C for 5 days. The turbidity OD at a wavelength of 405 nm was measured using a microplate reader. A growth inhibition rate (%) was calculated by the following formula. Growth inhibition rate(%) = 100−100 x [formula] • {[(OD of treated plot after culturing) - (OD of treated plot before culturing)] • /[(OD of untreated control after culturing) - (OD of untreated control before culturing)]}

[4] = system: grape ripe rot fungus (Glomerella cingulata); assay: Fungicidal effect test against grape ripe rot fungus (96-well microplate, turbidity); details: 25 ppm by volume; Vogel's medium; 25°C, 3 days; turbidity OD at 405 nm
Description: as §1, §2, §3
(§4) The turbidity was measured and the growth inhibition rate was calculated in the same manner as in the fungicidal effect test against the gray mold fungus, except that the spore suspension of gray mold fungus (Botrytis cinerea, Vogel's medium) was changed to a spore suspension of grape ripe rot fungus (Glomerella cingulata, Vogel's medium), and the temperature and period during standing were changed to 25°C and 3 days.

[5] = system: apple anthracnose fungus (Colletotrichum acutatum); assay: Fungicidal effect test against apple anthracnose fungus (96-well microplate, turbidity); details: 25 ppm by volume; Czapek medium; 25°C, 4 days; turbidity OD at 405 nm
Description: as §1, §2, §3
as §4, with “apple anthracnose” for “grape ripe rot”, “(Colletotrichum acutatum, Czapek” for “(Glomerella cingulata, Vogel's”, “4” for “3”

[6] = system: apple alternaria blotch fungus (Alternaria alternata); assay: Fungicidal effect test against apple alternaria blotch fungus (96-well microplate, turbidity); details: 25 ppm by volume; YBA medium; 25°C, 5 days; turbidity OD at 405 nm
Description: as §1, §2, §3
as §4, with “apple alternaria blotch” for “grape ripe rot”, “(Alternaria alternata, YBA” for “(Glomerella cingulata, Vogel's”, “temperature” for “temperature and period”, “was” for “were”, “25°C.” for “25°C and 3 days.”

[7] = system: apple scab fungus (Venturia inaequalis); assay: Control test of apple scab (sprayed seedlings); details: 125 ppm by mass sprayed on apple seedlings (cultivar "Orin", 3 or 4 leaf stage); lesion area rate twelve to fourteen days after inoculation, 20°C
Description: Water was added to the emulsifiable concentrate (1) so that the concentration of the 5-membered heteroaryl compound according to the embodiment of the present invention was 125 ppm by mass, thereby obtaining a chemical solution. Subsequently, the chemical solution was sprayed onto apple seedlings (cultivar "Orin", 3 or 4 leaf stage) grown in seedling pots, and then air-dried. Thereafter, conidia of the apple scab fungus (Venturia inaequalis) were inoculated onto the seedlings (treated plot). As a control, the same inoculation was performed on apple seedlings onto which the chemical solution had not been sprayed (untreated control). The seedlings were allowed to stand in a humid chamber at 20°C under alternating 12-hour light and dark cycles.
Twelve to fourteen days after inoculation, the leaves of the apple seedlings were visually observed, and a control value was calculated from the lesion area rate using the formula employed for calculating the control value in the control test for cucumber gray mold described above.

Row | Compound | control value [1] | control value [2] | growth inhibition rate [3] | growth inhibition rate [4] | growth inhibition rate [5] | growth inhibition rate [6] | control value [7]
1 | Cc1ccc(CONC(=O)c2c(Oc3cccc(Br)c3F)nnn2C(C)(C)C)c(C)c1 | ≥ 75% |  |  |  |  |  | 
2 | Cc1ccc(CONC(=O)c2c(Oc3cccc(Cl)c3)nnn2C(C)(C)C)c(C)c1 | ≥ 75% | ≥ 75% |  |  |  |  | 
3 | CCC(C)(C)n1nnc(Oc2cccc(C)c2)c1C(=O)NOCc1ccc(C)cc1C |  |  | ≥ 75% | ≥ 75% | ≥ 75% | ≥ 75% | 
4 | Cc1ccc(CONC(=O)c2c(Oc3cccc(C(F)(F)F)c3)nnn2C(C)(C)C)c(Cl)c1 | ≥ 75% | ≥ 75% | ≥ 75% | ≥ 75% | ≥ 75% | ≥ 75% | ≥ 75%
5 | Cc1ccc(CONC(=O)c2c(Oc3cccc(C(F)(F)F)c3)nnn2C(C)(C)C)c(C)c1 | ≥ 75% | ≥ 75% | ≥ 75% | ≥ 75% | ≥ 75% | ≥ 75% | ≥ 75%
6 | COc1ccc(CONC(=O)c2c(Oc3cccc(Cl)c3)nnn2C(C)(C)C)c(C)n1 |  | ≥ 75% |  |  |  |  | 
7 | Cc1ccc(CONC(=O)c2c(Oc3ccccc3)nnn2C(C)(C)C)c(C)c1 | ≥ 75% |  |  |  |  |  | 
8 | Cc1ccc(CONC(=O)c2c(Oc3cccnc3)nnn2C(C)(C)C)c(C)c1 |  | ≥ 75% |  |  |  |  | 
9 | Cc1ccc(CONC(=O)c2c(Oc3cccc(Br)c3)nnn2C(C)(C)C)c(C)c1 | ≥ 75% | ≥ 75% |  |  |  |  | 
10 | COc1cc(C)ccc1CONC(=O)c1c(Oc2cccc(Br)c2)nnn1C(C)(C)C |  | ≥ 75% |  |  |  |  | ≥ 75%

From EP4847490A1, “FIVE-MEMBER HETEROARYL COMPOUND AND BACTERICIDE FOR AGRICULTURAL AND HORTICULTURAL USE” (dated 2026)
